Assay [1] has as its target Scytalone dehydratase (Magnaporthe oryzae (strain 70-15 / FGSC 8958) (Rice blast fungus)(Pyricularia oryzae), UniProt P56221, H110N). The experiment in a line: The compound was evaluated for its binding affinity against mutant H110N scytalone dehydratase.
The target of assay [2] is Scytalone dehydratase (Magnaporthe oryzae (strain 70-15 / FGSC 8958) (Rice blast fungus)(Pyricularia oryzae), UniProt P56221, Y30F). In words: The compound was evaluated for its binding affinity against mutant Y30F scytalone dehydratase.
For assay [3], the target named is Scytalone dehydratase (Magnaporthe oryzae (strain 70-15 / FGSC 8958) (Rice blast fungus)(Pyricularia oryzae), UniProt P56221, H85N). The experiment in a line: The compound was evaluated for its binding affinity against mutant H85N scytalone dehydratase.
Assay [4] has as its target Scytalone dehydratase (Magnaporthe oryzae (strain 70-15 / FGSC 8958) (Rice blast fungus)(Pyricularia oryzae), UniProt P56221, N131A). The experiment in a line: The compound was evaluated for its binding affinity against mutant N131A scytalone dehydratase.
The target in assay [5] is Scytalone dehydratase (Magnaporthe oryzae (strain 70-15 / FGSC 8958) (Rice blast fungus)(Pyricularia oryzae), UniProt P56221, Y50F). In words: The compound was evaluated for its binding affinity against mutant Y50F scytalone dehydratase.

Regarding `CC(C)NC(=O)c1cc(F)ccc1O`, the Ki at Scytalone dehydratase [1] is 9.1 µM; on Scytalone dehydratase [2] it was 0.16 µM; at Scytalone dehydratase [3] it was 4 µM; on Scytalone dehydratase [4] it was 71 µM; on Scytalone dehydratase [5], 0.085 µM.

A word on the Ki: it is the equilibrium dissociation constant of an inhibitor or competing ligand from its target.

These data come from ChEMBL document CHEMBL1133488 (Bioorg Med Chem Lett, 2000).
